Target: Nicotinamide phosphoribosyltransferase (Homo sapiens, UniProt P43490)
Assay: Enzyme Assay and NMN Detection

The chains behind the UniProt entries cited, without tags or fusion partners. Where a name states a change or a piece, a line headed by the entry shows the natural chain unless it says otherwise.
UniProt P43490: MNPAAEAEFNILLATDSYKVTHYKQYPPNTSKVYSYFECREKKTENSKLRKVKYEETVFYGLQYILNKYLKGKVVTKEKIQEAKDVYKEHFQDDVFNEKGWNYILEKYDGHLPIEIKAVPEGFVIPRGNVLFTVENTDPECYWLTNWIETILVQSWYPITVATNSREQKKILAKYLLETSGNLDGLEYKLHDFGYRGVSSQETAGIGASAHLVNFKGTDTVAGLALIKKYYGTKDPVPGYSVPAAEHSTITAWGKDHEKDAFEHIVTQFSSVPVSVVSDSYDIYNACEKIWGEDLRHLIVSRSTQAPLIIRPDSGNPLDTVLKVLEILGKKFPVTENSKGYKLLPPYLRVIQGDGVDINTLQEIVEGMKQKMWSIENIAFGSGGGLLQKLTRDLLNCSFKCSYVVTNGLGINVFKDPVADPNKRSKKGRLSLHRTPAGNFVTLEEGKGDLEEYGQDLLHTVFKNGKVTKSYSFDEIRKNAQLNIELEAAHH

`CCOC(=O)c1ccc(NC(=O)NCc2ccncc2)cc1` [US11452717, Compound TableB-2.28] showed an EC50 of over 20 µM.

— BindingDB's records for patent US11452717 (SANFORD BURNHAM PREBYS MEDICAL DISCOVERY INSTITUTE, 2022)
